Reference: PubChem BioAssay AID1224833 (University of Georgia, 2016)

Test: 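Host factors restraining rotavirus as candidate antiviral genes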 (primary screen)
System: monkey MA104 kidney cells
Reagent: siRNA pool against human genes, 50 nM
Duration: 48 h knock-down before infection; read 24 h after infection
Conditions: infection with rotavirus strain RV3 two days after transfection; infectious dose for this stage not given
Measured: 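z-score of rotavirus antigen signal per well, from a fluorescent immunoassay, relative to non-targeting control wells on the same plate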
Direction: z-score vs non-targeting control: higher = more rotavirus replication than with non-targeting control
Hit rule: In these data the active calls have z-score vs non-targeting control at about -1 or lower, or at about 1 or higher
Calls: active = z-score beyond 1 either way; inactive = z-score within 1 of zero
This is one part, drawn at random, of about 12,000 reagents. About 5,600 of them (46%) were called active. 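Active calls cover z-scores past 1 in both directions, so they include lowered as well as raised rotavirus replication.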 No sequences are given here.

Gene	z-score vs non-targeting control	outcome
FRMD3 (GeneID 257019)	0.437	inactive
LIN7B (GeneID 64130)	-0.755	inactive
PLAA (GeneID 9373)	0.82	inactive
STRIP1 (GeneID 85369)	-0.921	inactive
NCBP3 (GeneID 55421)	-0.236	inactive
CASP8 (GeneID 841)	0.725	inactive
SELENOP (GeneID 6414)	-2.04	active
NEO1 (GeneID 4756)	-0.709	inactive
CHCHD1 (GeneID 118487)	-0.705	inactive
OR11H1 (GeneID 81061)	-0.802	inactive
LOX (GeneID 4015)	-3.1	active
OSGIN1 (GeneID 29948)	-0.816	inactive
AKT1S1 (GeneID 84335)	-0.423	inactive
SPINT1 (GeneID 6692)	1.22	active
ZNF697 (GeneID 90874)	0.749	inactive
ANP32CP (GeneID 23520)	-3.03	active
KCTD16 (GeneID 57528)	-2.55	active
PLD2 (GeneID 5338)	-1.6	active
C4A (GeneID 720)	-0.534	inactive
OR1J2 (GeneID 26740)	-0.706	inactive
BRMS1 (GeneID 25855)	-1.36	active
GPR22 (GeneID 2845)	-2.03	active
PPAN-P2RY11 (GeneID 692312)	-0.195	inactive
MRPL40 (GeneID 64976)	-0.129	inactive
LY6G5C (GeneID 80741)	-0.648	inactive
RASA4 (GeneID 10156)	-0.601	inactive
AMIGO2 (GeneID 347902)	0.428	inactive
ZNF81 (GeneID 347344)	-0.73	inactive
ELF3 (GeneID 1999)	1.69	active
GID4 (GeneID 79018)	-1.31	active
TSPYL1 (GeneID 7259)	-0.997	inactive
UNC5C (GeneID 8633)	0.609	inactive
OR13C5 (GeneID 138799)	-0.706	inactive
DIP2C (GeneID 22982)	0.401	inactive
ICAM1 (GeneID 3383)	-1.48	active
RHOT1 (GeneID 55288)	-1.17	active
PSG9 (GeneID 5678)	-0.9	inactive
SMPD3 (GeneID 55512)	-0.634	inactive
BATF3 (GeneID 55509)	1.38	active
BSPRY (GeneID 54836)	1.14	active
ASCC3 (GeneID 10973)	1.11	active
RAB10 (GeneID 10890)	-0.712	inactive
OR5D14 (GeneID 219436)	-1.69	active
CEBPA (GeneID 1050)	0.721	inactive
HSBP1 (GeneID 3281)	0.691	inactive
